Experimental findings from paper PMC10739260, “Shape-Based Virtual Screening of a Billion-Compound Library Identifies Mycobacterial Lipoamide Dehydrogenase Inhibitors” (ACS Bio & Med Chem Au, 2023) are described below.

Amino acid sequences for entries named in this document (tags omitted).
UniProt P9WHH9, whole entry: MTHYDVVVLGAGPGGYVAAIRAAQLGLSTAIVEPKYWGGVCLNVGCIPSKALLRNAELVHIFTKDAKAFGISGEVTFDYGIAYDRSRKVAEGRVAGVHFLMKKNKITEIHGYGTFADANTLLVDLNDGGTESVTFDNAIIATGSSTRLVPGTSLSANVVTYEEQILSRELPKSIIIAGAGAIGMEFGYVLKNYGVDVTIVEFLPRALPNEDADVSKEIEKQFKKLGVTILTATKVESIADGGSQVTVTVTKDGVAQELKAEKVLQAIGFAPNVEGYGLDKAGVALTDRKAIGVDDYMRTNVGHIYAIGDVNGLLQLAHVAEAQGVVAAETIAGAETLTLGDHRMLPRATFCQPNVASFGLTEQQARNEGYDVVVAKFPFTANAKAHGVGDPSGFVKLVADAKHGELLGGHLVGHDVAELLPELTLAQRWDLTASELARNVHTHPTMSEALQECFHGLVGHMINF

For one experiment, the target named is Mtb Lpd (Mycobacterium tuberculosis, UniProt P9WHH9). Nature of the experiment: Lpd enzyme assay (spectrophotometric, DTNB, lipoamide, NADH). The format is biochemical. The conditions noted are these: read-out: LPD IC50.
A further experiment has as its target PDH complex (Mycobacterium tuberculosis, UniProt P9WHH9). Nature of the experiment: PDH complex inhibition. In kind it is biochemical. The conditions noted are these: read-out: PDH IC50; Table S1, known actives used as probes in GPU Shape screen.
The test system of the next experiment is Mtb. Nature of the experiment: Mtb MIC assay (bacterial growth inhibition). The format is cell-based, Mycobacterium tuberculosis. The conditions noted are these: Table S1, known actives used as probes in GPU Shape screen.
The mark [1] stands for this setting: Table S1, known actives used as probes in GPU Shape screen.
Setting [2] is: Table S2, pre-existing SAR of sulfonamide series.

Where two headings read alike, the source gives them in different places.

As a reminder, the IC50 is the point on the concentration scale where inhibition reaches its midpoint. With `Cc1cc(S(=O)(=O)N(C)CC(=O)Nc2ccn(C)c(=O)c2)c2[nH][nH]c(=O)c2c1`, the IC50 on Mtb Lpd (setting [1]) is 71 nM; at PDH complex, 100 nM. For the same molecule, the “Mtb MIC” value with Mtb is over 100 µM.
The corresponding values for `Cc1cc(S(=O)(=O)N(C)CC(=O)Nc2ccc3c(c2)OCCO3)c2[nH]ncc2c1` are 11 nM, 50 nM and 25 µM.
The corresponding values for `Cc1cc(S(=O)(=O)N(C)CC(=O)Nc2ccc3c(c2)OCCN3C2CCOCC2)c2[nH]ncc2c1` are 42 nM, 4 nM and 1 µM.
The matching figures for `Cc1cc(S(=O)(=O)N(C)CC(=O)Nc2ccn(C)c(=O)c2)c2[nH]nc(C)c2c1`: 66 nM, 470 nM and 50 µM.
`Cc1cc(S(=O)(=O)N(C)CC(=O)Nc2ccc3c(c2)OCCN3C2COC2)c2[nH]ncc2c1`: the figures for the concentration for half-maximal inhibition (IC50) at Mtb Lpd (setting [1]) and on PDH complex were 28 nM and 4 nM, respectively. For the same molecule, in the experiment on Mtb, the “Mtb MIC” value is 2 µM.
Consider `COc1ccc(NC(=O)CN(C)S(=O)(=O)c2cc(C)cnc2N)cc1Cl`, for which the IC50 on Mtb Lpd (setting [2]) was 70 nM.
In the case of `CN(CC(=O)Nc1ccn(C)c(=O)c1)S(=O)(=O)c1cc(Cl)cc2cn[nH]c12`, the IC50 turned out to be 55 nM on Mtb Lpd (setting [1]) and 110 nM at PDH complex. The “Mtb MIC” value in the experiment with Mtb is 13 µM.
For `Cc1cc(S(=O)(=O)N(C)CC(=O)Nc2ccc3c(c2)N(C)CCO3)c2[nH]ncc2c1`, the IC50 on Mtb Lpd (setting [1]) is 17 nM; at PDH complex it was 50 nM. Further, the “Mtb MIC” value in the experiment with Mtb was determined as 13 µM.
As for `CN(CC(=O)Nc1ccc(N2CCOCC2)c(Cl)c1)S(=O)(=O)c1cc(Br)cc2cn[nH]c12`, the IC50 on Mtb Lpd (setting [1]) turned out to be 4 nM; at PDH complex, 100 nM. For the same molecule, in the experiment with Mtb, the “Mtb MIC” value is over 25 µM.
Turning to `COc1cccc2[nH]c(CN(C)S(=O)(=O)c3cc(C)cc4cn[nH]c34)nc12`, the values for the IC50 on Mtb Lpd (setting [1]) and on PDH complex were 38 nM and 10 nM, respectively. Besides, the “Mtb MIC” value in the experiment on Mtb is 50 µM.
In the case of `Cc1cc(S(=O)(=O)N(C)CC(=O)Nc2ccc(N3CCN(C)CC3)c(Cl)c2)c2[nH]ncc2c1`, the 50% inhibitory concentration (IC50) was determined as 44 nM on Mtb Lpd (setting [1]) and 1 nM at PDH complex. Moreover, in the experiment on Mtb, the “Mtb MIC” value is 2 µM.
As to `Cc1cc(S(=O)(=O)N(C)CC(=O)Nc2ccc(N3CCOCC3)c(Cl)c2)c2[nH]ncc2c1`, at PDH complex, the IC50 worked out at 10 nM. The “Mtb MIC” value in the experiment on Mtb was found to be 13 µM.
For `Cc1cc(S(=O)(=O)N(C)CC(=O)Nc2ccc3ncccc3c2)c2[nH]ncc2c1`, the IC50 at Mtb Lpd (setting [1]) is 22 nM; at PDH complex, 10 nM. Besides, the “Mtb MIC” value in the experiment with Mtb worked out at 3 µM.
In the case of `COc1ccc(NC(=O)CN(C)S(=O)(=O)c2cccnc2N)cc1Cl`, at Mtb Lpd (setting [2]), the IC50 is 5900 nM.
`Cc1cc(S(=O)(=O)N(C)CC(=O)Nc2ccc3c(c2)OCCN3C)c2[nH]ncc2c1`: the IC50 at Mtb Lpd (setting [1]) worked out at 4 nM; on PDH complex, 50 nM. In addition, in the experiment on Mtb, the “Mtb MIC” value came to 3 µM.
On to `CN(CC(=O)Nc1ccn(C)c(=O)c1)S(=O)(=O)c1cc(Br)cc2cn[nH]c12`, for which the “Mtb MIC” value in the experiment with Mtb was 6 µM.
Take `CN(CC(=O)Nc1ccn(C)c(=O)c1)S(=O)(=O)c1cccc2cn[nH]c12`: the IC50 at Mtb Lpd (setting [2]) was determined as 1800 nM.
Turning to `COc1ccc(NC(=O)CN(C)S(=O)(=O)c2cc(C)cc3cn[nH]c23)cc1Cl`, the IC50 on Mtb Lpd (setting [1]) is 20 nM; at PDH complex, 130 nM. Besides, in the experiment on Mtb, the “Mtb MIC” value came to 25 µM.
`CCN(CC(=O)Nc1ccn(C)c(=O)c1)S(=O)(=O)c1cc(C)cc2cn[nH]c12`: the IC50 on PDH complex came to 40 nM. Besides, in the experiment with Mtb, the “Mtb MIC” value worked out at 6 µM.
In the case of `CN(CC(=O)Nc1ccn(C)c(=O)c1)S(=O)(=O)c1cc(C(F)F)cc2cn[nH]c12`, the IC50 at Mtb Lpd (setting [1]) turned out to be 47 nM; on PDH complex it was 160 nM. In the experiment on Mtb, the “Mtb MIC” value is 6 µM.
